The target in one assay is MERS-HR1 (Middle East respiratory syndrome-related coronavirus, UniProt K9N5Q8). In words: Circular dichroism thermal denaturation of peptide/MERS-HR1 complex. The following applies: CD, 10 μM in PBS, thermal denaturation at 222 nm, 5 °C/min (Fig. S4). (CD spectra are sensitive to the conformation of chiral molecules.)
In the next assay the target is SARS-HR1 (Severe acute respiratory syndrome coronavirus, UniProt P59594). In words: Circular dichroism thermal denaturation of peptide/SARS-HR1 complex. The following applies: CD, 10 μM in PBS, thermal denaturation at 222 nm, 5 °C/min (Fig. S4).

Chains of the proteins cited; added tags and fusions are not shown. Residues count along the entry.
UniProt K9N5Q8, 994-1044 limits assumed: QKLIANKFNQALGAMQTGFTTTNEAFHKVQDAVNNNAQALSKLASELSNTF

Results on one molecule are retold here after article PMC7104723 (Cell Research, 2020).

For the molecule `CC[C@H](C)[C@H](NC(=O)[C@H](C)NC(=O)[C@H](CCC(=O)O)NC(=O)[C@H](CCC(=O)O)NC(=O)[C@H](CC(C)C)NC(=O)[C@H](CCCCN)NC(=O)[C@H](CCCCN)NC(=O)[C@H](CCSC)NC(=O)[C@H](CCC(=O)O)NC(=O)[C@H](Cc1ccc(O)cc1)NC(=O)[C@H](CCC(=O)O)NC(=O)[C@H](CC(C)C)NC(=O)[C@H](CC(=O)O)NC(=O)[C@H](CC(C)C)NC(=O)[C@H](Cc1ccccc1)NC(=O)[C@@H](NC(=O)[C@@H](NC(=O)[C@H](CC(N)=O)NC(=O)[C@@H](NC(=O)[C@H](CCC(N)=O)NC(=O)[C@H](CC(=O)O)NC(=O)[C@H](CC(C)C)NC(=O)[C@@H](N)CO)[C@@H](C)CC)C(C)C)[C@@H](C)O)C(=O)N[C@@H](CCCCN)C(=O)N[C@@H](CCCCN)C(=O)N[C@@H](CC(C)C)C(=O)N[C@@H](CCC(=O)O)C(=O)N[C@@H](CCC(=O)O)C(=O)N[C@@H](CO)C(=O)N[C@@H](Cc1ccc(O)cc1)C(=O)N[C@H](C(=O)N[C@@H](CC(=O)O)C(=O)N[C@@H](CC(C)C)C(=O)N[C@@H](CCCCN)C(=O)N[C@@H](CCC(=O)O)C(=O)N[C@@H](CC(C)C)C(=O)NCC(=O)N[C@@H](CO)C(=O)NCC(=O)N[C@@H](CO)C(=O)NCC(=O)NCCOCCOCCOCCOCCC(=O)N[C@@H](CSCC(=O)O[C@H]1CC[C@@]2(C)C(=CC[C@H]3[C@@H]4CC[C@H]([C@H](C)CCCC(C)C)[C@@]4(C)CC[C@@H]32)C1)C(N)=O)[C@@H](C)CC` [EK1C4], the “Stability and Tm of complex with MERS-HR1 compared with EK1 complex” value at MERS-HR1 is “higher stability and increased Tm values”. In addition, the “Stability and Tm of complex with SARS-HR1 compared with EK1 complex” value at SARS-HR1 is “higher stability and increased Tm values”.
